Pooled drug test results. Numbers come from NIAID ChemDB, via PubChem.

All rows: target-level tests

a–b is a range or a potency band.

SMILES	tested at	read by	measure	target	species	strain	value
CC(C)(C)c1ccc(-n2nnnc2SCC(=O)Nc2ccc(C(=O)NN3CCOCC3)cc2Cl)c(Cl)c1		PicoGreen / fluorescence	IC50	Reverse transcriptase	HIV-1	WT	<1 µM
CCOc1ccc([N+](=O)[O-])cc1-c1ccc2cc(-c3nc4cc(C(=O)O)ccc4n3C3CCCCC3)ccc2n1	33 µM		inhibition	NS5B polymerase	Hepatitis C virus		102%
O=C1c2c(O)c(=O)c(-c3nccs3)cn2CCN1Cc1ccc(OCc2ccccc2)c(Cl)c1		ELISA	IC50	Integrase	HIV-1		0.01–0.1 µM
CN(C)c1ccc(-c2cncc(N3CCN(c4ccc(F)cc4F)CC3)n2)cc1			IC50	UL97 kinase	Cytomegalovirus		<10 µM
O=C(NCc1ccc(F)cc1)c1cn2c(c(O)c1=O)C(=O)N(Cc1ccc(F)cc1)CC2		ELISA	IC50	Integrase	HIV-1		<0.01 µM
CCOc1ccccc1-c1cncc(N2CCN(c3ccc(C(C)=O)cc3)CC2)n1	10 µM		inhibition	UL97 kinase	Cytomegalovirus		>15%
COc1cccc(Oc2ccc(-c3cnc4c(-c5nn[nH]n5)cnn4c3C3CCCCC3)cc2)c1			IC50	RNA-dependent RNA polymerase	Hepatitis C virus		<1 µM
COCC(C)(C)C(=O)c1cn2c(c(O)c1=O)C(=O)N(Cc1ccc(F)cc1)CC2		ELISA	IC50	Integrase	HIV-1		0.01–0.1 µM
O=C(O)CCC(NC(=O)c1ccc2c(c1)nc(-c1ccc3nc(-c4ccccc4)cnc3c1)n2C1CCCCC1)C(=O)O	33 µM		inhibition	NS5B polymerase	Hepatitis C virus		73.22%
O=c1c(-c2ccncc2)cn2ccn(Cc3ccc(F)cc3)c(=O)c2c1O		ELISA	IC50	Integrase	HIV-1		<0.01 µM
O=C(O)c1ccc2c(c1)nc(-c1ccc3nc(-c4cc[nH]c4)ccc3c1)n2C1CCCCC1	100 µM		inhibition	NS5B polymerase	Hepatitis C virus		96.37%
CC(=O)NCCCCCC(C)(C)CN(C[C@@H](O)[C@H](Cc1ccccc1)NC(=O)O[C@H]1CO[C@H]2OCC[C@H]21)S(=O)(=O)c1ccc2c(c1)OCO2		fluorescence	Ki	Protease	HIV-1		<0.001 µM
COc1ccc(-c2cncc(N3CCN(c4ccc(F)cc4)CC3)n2)cc1OC			IC50	UL97 kinase	Cytomegalovirus		<10 µM
O=c1c(-c2ccccn2)cn2ccn(Cc3ccc(F)c(F)c3)c(=O)c2c1O		ELISA	IC50	Integrase	HIV-1		<0.01 µM
O=C(c1ccc2c(c1)nc(-c1cc3ccc(-c4ccccc4-c4ccc(Cl)cc4)nc3cc1F)n2C1CCCCC1)N1CCC(O)CC1	33 µM		inhibition	NS5B polymerase	Hepatitis C virus		89.64%
CN(Cc1ccc2nc(N)nc(N)c2n1)c1ccc(C(=O)N2CCOCC2)cc1			IC50	Dihydrofolate reductase	Cryptosporidium parvum	TYPE 2	0.65 µM
COc1cc(Br)c2oc(-c3ccc4cc(-c5nc6cc(C(=O)O)ccc6n5C5CCCCC5)ccc4n3)cc2c1	33 µM		inhibition	NS5B polymerase	Hepatitis C virus		98.9%
COC(=O)c1cn2ccn(Cc3cccc(Cl)c3)c(=O)c2c(O)c1=O		ELISA	IC50	Integrase	HIV-1		0.01–0.1 µM
O=C(O)c1cc2nc(-c3cccs3)c(C3CCCCC3)c(=O)n2[nH]1			IC50	RNA-dependent RNA polymerase	Hepatitis C virus		1–10 µM
CC(C)(C#Cc1ccc(NC(=O)CSc2nnnn2-c2ccc(C3CC3)cc2Cl)c(Cl)c1)OCCN1CCCC1=O		PicoGreen / fluorescence	IC50	Reverse transcriptase	HIV-1	WT	<1 µM
Nc1nc(N)c2nc(Cc3ccc(Cl)c(Cl)c3)c(Cc3ccc(Cl)c(Cl)c3)nc2n1			IC50	Dihydrofolate reductase	Cryptosporidium parvum	TYPE 2	0.25 µM
CC(C)(C)c1ccc(-n2nnnc2SCC(=O)Nc2ccc(C(=O)NCc3ccc(O)c(O)c3)cc2Cl)c(Cl)c1		PicoGreen / fluorescence	IC50	Reverse transcriptase	HIV-1	WT	<1 µM
CCCOC(=O)NCCCCC(C)(C)CN(C[C@@H](O)[C@H](Cc1ccccc1)NC(=O)O[C@H]1CO[C@H]2OCC[C@H]21)S(=O)(=O)c1ccc2c(c1)OCO2		fluorescence	Ki	Protease	HIV-1		<0.001 µM
O=C(O)c1ccc2c(c1)nc(-c1ccc3nc(-c4cc(OCC(=O)N5CCCC5)ccc4-c4ccc(Cl)cc4)ccc3c1)n2C1CCCCC1	100 µM		inhibition	NS5B polymerase	Hepatitis C virus		97.19%
O=C(O)c1cnn2c(C3CCCCC3)c(-c3cccc(OCc4cccc(C(F)(F)F)c4)c3)cnc12			IC50	RNA-dependent RNA polymerase	Hepatitis C virus		>10 µM
COc1cccc(-c2cncc(N3CCN(c4ccccn4)CC3)n2)c1			IC50	UL97 kinase	Cytomegalovirus		<10 µM
NC(N)=NCCCC(NC(=O)c1ccc2c(c1)nc(-c1cc3ncc(-c4ccccc4)nc3cc1F)n2C1CCCCC1)C(=O)O	100 µM		inhibition	NS5B polymerase	Hepatitis C virus		94.97%
CN(Cc1ccc2nc(N)nc(N)c2n1)c1cccc(Cl)c1			IC50	Dihydrofolate reductase	Cryptosporidium parvum	TYPE 2	0.024 µM
O=C(O)c1ccc2c(c1)nc(-c1cc3ccc(-c4ccccc4-c4ccc(Cl)cc4)nc3cc1F)n2C1CCCCC1	100 µM		inhibition	NS5B polymerase	Hepatitis C virus		98.86%
COC(=O)NCCCCC(C)(C)CN(C[C@@H](O)[C@H](Cc1ccccc1)NC(=O)O[C@H]1CO[C@H]2OCC[C@H]21)S(=O)(=O)c1cccc2c1OCCO2		fluorescence	Ki	Protease	HIV-1		<0.001 µM
O=C(O)c1cc2nc(-c3ccc(OCc4ccccc4)cc3)cc(-c3ccccc3)n2n1			IC50	RNA-dependent RNA polymerase	Hepatitis C virus		>10 µM
CC(=O)c1ccc(-c2cncc(N3CCN(c4ccncc4)CC3)n2)s1			IC50	UL97 kinase	Cytomegalovirus		<1 µM
CC(C)(C)c1ccc(-n2nnnc2SCC(=O)Nc2ccc(NC(=O)Cc3ccccn3)cc2Cl)c(Cl)c1		PicoGreen / fluorescence	IC50	Reverse transcriptase	HIV-1	WT	<1 µM
CC(C)NC(=S)NCCCCC(C)(C)CN(C[C@@H](O)[C@H](Cc1ccccc1)NC(=O)O[C@H]1CO[C@H]2OCC[C@H]21)S(=O)(=O)c1ccc2c(c1)OCO2		fluorescence	Ki	Protease	HIV-1		<0.001 µM
O=c1c(-c2nn[nH]n2)cn2ccn(Cc3cccc(Cl)c3)c(=O)c2c1O		ELISA	IC50	Integrase	HIV-1		0.01–0.1 µM
Fc1ccc(-c2cnc3c(-c4nn[nH]n4)cnn3c2C2CCCCC2)cc1F			IC50	RNA-dependent RNA polymerase	Hepatitis C virus		<1 µM
COc1cccc(N2CCN(c3cncc(-c4ccoc4)n3)CC2)c1			IC50	UL97 kinase	Cytomegalovirus		<100 µM
O=C(NC(Cc1ccc(O)cc1)C(=O)O)c1ccc2c(c1)nc(-c1ccc3nc(-c4ccccc4)cnc3c1)n2C1CCCCC1	100 µM		inhibition	NS5B polymerase	Hepatitis C virus		99.11%
Cc1ccc(-n2nnnc2SCC(=O)Nc2ccc(-c3cccc(CC(=O)O)c3)cc2Cl)c(Cl)c1		PicoGreen / fluorescence	IC50	Reverse transcriptase	HIV-1	WT	<1 µM
Brc1cnn2c(C3CCCCC3)c(-c3ccc(OCc4ccccc4)cc3)cnc12			IC50	RNA-dependent RNA polymerase	Hepatitis C virus		>10 µM
COc1cccc(-c2cncc(N3CCN(c4cccc(OC)c4)CC3)n2)c1	1 µM		inhibition	UL97 kinase	Cytomegalovirus		<50%
CC(C)OC(=O)NCCCCC(C)(C)CN(C[C@@H](O)[C@H](Cc1ccccc1)NC(=O)O[C@H]1CO[C@H]2OCC[C@H]21)S(=O)(=O)c1ccc2c(c1)OCO2		fluorescence	Ki	Protease	HIV-1		<0.001 µM
Cc1ccc(N2CCN(c3cncc(-c4ccc(C(F)(F)F)cc4)n3)CC2)cc1	1 µM		inhibition	UL97 kinase	Cytomegalovirus		<50%
CC1(C)CN(Cc2ccc(Cl)c(Cl)c2)C(=O)c2c(O)c(=O)ccn21		ELISA	IC50	Integrase	HIV-1		0.01–0.1 µM
O=C(O)c1cc2nc(-c3ccco3)c(C3CCCCC3)c(=O)n2[nH]1			IC50	RNA-dependent RNA polymerase	Hepatitis C virus		<1 µM
c1ccc(C2CCN(c3cncc(-c4ccsc4)n3)CC2)cc1			IC50	UL97 kinase	Cytomegalovirus		<10 µM
COc1cc(N(C)Cc2cccc3nc(N)nc(N)c23)cc(OC)c1OC			IC50	Dihydrofolate reductase	Cryptosporidium parvum	TYPE 2	>10 µM
O=Cc1cc(=O)c(O)c2n1CCN(Cc1ccc(Cl)c(Cl)c1)C2=O		ELISA	IC50	Integrase	HIV-1		0.01–0.1 µM
O=C(O)c1cc2nc(-c3ccc(-c4ccccc4)cc3)c(C3CCCCC3)c(=O)n2[nH]1			IC50	RNA-dependent RNA polymerase	Hepatitis C virus		1–10 µM

ICn: concentration for n% inhibition. Lines come from different laboratories, so protocols vary. Inhibition is in % at the dose shown (toxicity tests: loss of growth or viability). Blank or dashed fields: not listed here.